Measured values from several laboratories, pooled; numbers as filed in NIAID ChemDB.

All rows: growth or infection tests; agent: Mycobacterium avium; measure: MIC

An empty or dashed field is not shown. Lines come from different laboratories, so protocols vary. a–b is a range or a potency band.

smiles | strain or isolate | changes | method | conditions | result
CCc1nc2ccc(Cl)cn2c1C(=O)NCc1ccc(N2CCC(c3ccc(OC(F)(F)F)cc3)CC2)cc1 | 2151 |  | resazurin |  | <2 µM
Cc1ccc(C(Cn2ccnc2)OCc2ccc(-c3ccccc3)cc2)cc1 | 103317 |  |  |  | 5.43 µM
Cc1nc2scc(-c3ccco3)c2c(=O)n1NC(=O)C1CCCCC1 | CNCTC MY330/88 |  |  |  | 215 µM
Cn1cn[nH]c1=S | MY330/88 |  |  |  | >1000 µM
Cc1nc2scc(-c3ccco3)c2c(=O)n1/N=C/c1ccccc1 | CNCTC MY330/88 |  |  |  | 48 µM
Cc1csc(NC(=O)c2ccc(Cl)cc2O)n1 | MY330/88 |  |  |  | 250 µM
O=C(Oc1cc(Cl)ccc1C(=O)Nc1ccc(F)cc1)c1cnccn1 | 330/88 |  |  | 21 d | 4 µM
O=c1oc2ccccc2c(=O)n1-c1cccc(F)c1 | CNCTC MY330/88 |  |  |  | 125 µM
O/N=C(\Cn1ccnc1)c1ccccc1 | 103317 |  |  |  | 79.5 µM
Cc1ccn2c(C(=O)NCc3ccc(N4CCC5(CC4)OCC(C)CO5)c(F)c3)c(C)nc2c1 | 101 |  | resazurin |  | 2–10 µM
CC[C@H]1OC(=O)[C@H](C)C(=O)[C@H](C)[C@@H](O[C@@H]2O[C@H](C)C[C@H](N(C)C)[C@H]2O)[C@](C)(OC)C[C@@H](C)C(=O)[C@H](C)[C@H]2N(NCCCc3ccnc4ccccc34)C(=O)O[C@]12C | Isolate 1110 |  |  |  | 10 µg/mL
O=[N+]([O-])c1cccc(CSc2ncn[nH]2)c1 | MY330/88 |  |  |  | 500 µM
Cc1ccc2oc(=O)n(-c3ccc(Cl)c(Cl)c3)c(=O)c2c1 | CNCTC MY330/88 |  |  |  | 8 µM
Cc1nc2scc(-c3ccco3)c2c(=O)n1NC(=O)c1ccccc1 | CNCTC MY330/88 |  |  |  | 48 µM
C(=C\c1ccccc1)/CO/N=C(\Cn1ccnc1)c1ccccc1 | 103317 |  |  |  | 25.2 µM
CC(=O)Nn1c(C)nc2scc(-c3ccco3)c2c1=O | CNCTC MY330/88 |  |  |  | 211 µM
COc1cccc(NC(=O)OCCN2CCOCC2)c1 | MY330/88 |  |  |  | 1000 µM
O=C(Nc1cnccn1)c1ccccc1O | MY330/88 |  |  |  | 125 µM
Cc1ccn2c(C(=O)NCc3ccc(N4CCC(c5ccc(C(F)(F)F)cc5)CC4)nc3)c(C)nc2c1 | 2151 |  | resazurin |  | 2–10 µM
O=C(Oc1ccc(Cl)cc1C(=O)Nc1cccc(C(F)(F)F)c1)c1cnccn1 | 330/88 |  |  | 14 d | 8 µM
O=c1oc2cc(Cl)ccc2c(=O)n1-c1ccc(Br)cc1 | CNCTC MY330/88 |  |  |  | 8 µM
Cc1nc2scc(-c3ccco3)c2c(=O)n1/N=C/c1ccc(Cl)cc1Cl | CNCTC MY330/88 |  |  |  | 4 µM
O=C(Nc1ccc(C(F)(F)F)cc1)c1cc(Cl)ccc1OS(=O)(=O)c1ccccc1 | 330/88 |  |  | 14 d | 125 µM
O=c1oc2ccc(Br)cc2c(=S)n1-c1ccc(Br)cc1 | MY330/88 |  |  | 21 d | 32 µM
Cc1ccn2c(C(=O)NCc3ccc4c(c3)CCO4)c(C(F)(F)F)nc2c1 | 101 |  | resazurin |  | <2 µM
COc1ccc2c(=O)n(-c3ccc(C#N)cc3)c(=O)oc2c1 | CNCTC MY330/88 |  |  |  | 62.5 µM
O=C(Oc1ccc(Cl)cc1C(=O)Nc1cccc(F)c1)c1cnccn1 | 330/88 |  |  | 21 d | 16 µM
Clc1ccc(C(Cn2ccnc2)NCc2ccc(-c3ccccc3)cc2)c(Cl)c1 | 103317 |  |  |  | 18.9 µM
COc1ccc(C(=O)Nn2cncn2)c(O)c1 | MY330/88 |  |  |  | 1000 µM
CCCCCOc1ccc(NC(=O)OCCN(C)C)cc1 | MY330/88 |  |  |  | 16 µM
O=C(Oc1cc(Cl)ccc1C(=O)Nc1ccc(Br)cc1)c1cnccn1 | 330/88 |  |  | 21 d | 4 µM
Fc1cccc(-n2c(=S)oc3ccc(F)cc3c2=S)c1 | MY330/88 |  |  | 14 d | 16 µM
Cc1ccc2c(=O)n(-c3ccccc3)c(=O)oc2c1 | CNCTC MY330/88 |  |  |  | 62 µM
c1ccc(CSc2ncn[nH]2)cc1 | MY330/88 |  |  |  | 500 µM
COc1ccc(C(=O)Nc2cc(C)on2)c(O)c1 | MY330/88 |  |  |  | 250 µM
O=c1oc2ccc(F)cc2c(=S)n1-c1ccc(C(F)(F)F)cc1 | MY330/88 |  |  | 21 d | 32 µM
Cc1ccc(-n2c(=O)oc3cc(Cl)ccc3c2=O)cc1 | CNCTC MY330/88 |  |  |  | 8 µM
COc1ccccc1NC(=O)OCC[NH+]1CCCC1 | MY330/88 |  |  |  | >1000 µM
Cc1ccc2oc(=O)n(-c3cccc(F)c3)c(=S)c2c1 | MY330/88 |  |  | 14 d | 8 µM
CCCCCCOc1ccccc1NC(=O)OCCN1CCCCCC1 | MY330/88 |  |  |  | 16 µM
Clc1ccc(/C(Cn2ccnc2)=N/OCc2cccc3ccccc23)cc1 | 103317 |  |  |  | 21.3 µM
Cc1cccc(C(N)=Nc2nc(-c3ccccn3)cc3ccccc23)c1 | SK-12 |  |  |  | 1 µg/mL
O=C(Nc1cccc(N2CCSCC2)c1)c1ccc(Cl)cc1 | 103317 |  |  |  | 23.1 µM
CS(C)=O | 104 | Gentamicin-resistant | resazurin |  | >1 µg/mL
O=C(Nc1cnccn1)c1cc(Cl)ccc1O | MY330/88 |  |  |  | 250 µM
O=C(Nc1ccc(Br)cc1)c1cc(Cl)ccc1OS(=O)(=O)c1ccccc1 | 330/88 |  |  | 21 d | 32 µM
O=C(Oc1cc(Cl)ccc1C(=O)Nc1ccc(C(F)(F)F)cc1)c1cnccn1 | 330/88 |  |  | 21 d | 8 µM
Clc1ccc(CNc2ccc(N3CCSCC3)cc2)cc1 | 103317 |  |  |  | 103 µM
O=c1oc2ccc(Cl)cc2c(=S)n1-c1ccc(C(F)(F)F)cc1 | MY330/88 |  |  | 14 d | 32 µM
O=C(Nc1cccc(Br)c1)c1ccc(Cl)cc1OS(=O)(=O)c1ccccc1 | 330/88 |  |  | 14 d | 250 µM
O=[N+]([O-])c1ccc(CSc2ncn[nH]2)cc1 | MY330/88 |  |  |  | 500 µM
O=c1oc2ccc([N+](=O)[O-])cc2c(=O)n1-c1ccc(Cl)cc1 | CNCTC MY330/88 |  |  |  | 125 µM
S=c1oc2ccc(Br)cc2c(=S)n1-c1cccc(Cl)c1 | MY330/88 |  |  | 14 d | 16 µM
O=C(Nc1ccc(Br)cc1)c1ccc(Br)cc1OS(=O)(=O)c1ccccc1 | 330/88 |  |  | 14 d | 8 µM
CC(C)N=c1cc2n(-c3ccc(Cl)cc3)c3ccccc3nc-2cc1Nc1ccc(Cl)cc1 | 6193 |  |  |  | 2 µg/mL
O=c1oc2ccc(F)cc2c(=S)n1-c1ccc(Cl)cc1 | MY330/88 |  |  | 21 d | 8 µM

A second listing of 4 rows from above:

{"smiles": "Cc1nc2scc(-c3ccco3)c2c(=O)n1/N=C/c1ccc(Cl)cc1Cl", "strain or isolate": "CNCTC MY330/88", "result": "4 µM"}
{"smiles": "O=C(Nc1cccc(Br)c1)c1ccc(Cl)cc1OS(=O)(=O)c1ccccc1", "strain or isolate": "330/88", "conditions": "14 d", "result": "250 µM"}
{"smiles": "O=c1oc2cc(Cl)ccc2c(=O)n1-c1ccc(Br)cc1", "strain or isolate": "CNCTC MY330/88", "result": "8 µM"}
{"smiles": "Cc1csc(NC(=O)c2ccc(Cl)cc2O)n1", "strain or isolate": "MY330/88", "result": "250 µM"}